Literature values, collected in patent US4868155A, “Dipeptidyl 4-0-,6-0-acyl-2-amino-2-deoxy-D-glucose compositions and methods of use in AIDS-immunocompromised human hosts” (Merck & Co., Inc., priority 1987, dated 1989).

Tested on: AIDS related virus
Settings: clinical trials

Substance: Interleukin-2: Protein made by white blood cells that mediates production of interferon
- clinical benefit (symptoms, immune function) in AIDS / ARC patients: not encouraging
